A mixed list of measured activities; the numbers were collected in NIAID ChemDB.

Common to all: tests in culture; species: HIV-1; read by: cytopathic effect / MTT; read-out: fold resistance

An empty or dashed field is not shown. Conditions beyond the fields shown may differ between rows. Fold resistance has wild type as its base.

SMILES	cells	strain	mutations	value
O=C1c2ccccc2C(=O)N1CCOC(=S)N(C(=O)c1ccc(Cl)cc1)c1ccc(Cl)cc1	MT-4	IIIB	RT-K103R V179D P225H	>4000
CC(C)Nc1cccnc1N1CCN(C(=O)c2cc3cc(NS(C)(=O)=O)ccc3[nH]2)CC1	MT-4		RT-K100I	39.7
O=c1[nH]cnc2c1ncn2[C@H]1CC[C@@H](CO)O1	MT-4	Recombinant mutant	RT-A98S	0.3
CCC(C)Nc1nc(Cc2c(F)cccc2F)c(C)c(=O)[nH]1	MT-4		RT-Y181C	38
CCc1c(C)[nH]c(=O)c(N(C)C)c1Cc1cccc(/C=C/C#N)c1	MT-4		RT-E138K	7.5
CNc1cccc2c1nc(-c1c(F)cccc1F)n2Cc1c(F)cccc1F	MT-4		RT-Y181C	1.58
CCc1c(C)[nH]c(=O)c(N(C)C)c1C(=O)c1cc(Cl)cc(Cl)c1	MT-4		RT-K103N Y181C	79
c1ccc(C2OCc3nc4ccccc4n32)cc1	CEM	Nevirapine-resistant (RT V106A)	RT-V106A	>2
Fc1cccc(F)c1C1SCc2nc3ccccc3n21		IIIB	RT-Y181C	9.9
COc1c(O)c(Cl)c2c(c1OC)-c1c(c(Cl)c(O)c(OC)c1OC)C[C@H](C)[C@H](C)C2	MT-4	1506-RS (RT-Y188L)	RT-Y188L	>14.1
CN(C)c1cccc2c1nc(-c1c(F)cccc1F)n2Cc1c(F)cccc1F	MT-4		RT-M184I	0.97
O=C1c2ccccc2C(=O)N1CCOC(=S)N(C(=O)c1ccco1)c1ccc(Cl)cc1	MT-4	N119 nevirapine-resistant (RT Y181C)	RT-Y181C	>14300
COc1c(O)c(I)c2c(c1OC)-c1c(c(I)c(O)c(OC)c1OC)C[C@H](C)[C@H](C)C2	MT-2	N119 nevirapine-resistant (RT Y181C)	RT-Y181C	>76.9
CCCN(C)c1c(Cc2cc(C)cc(C)c2)c(CC)c(C)[nH]c1=O	MT-4	Recombinant	RT-Y181C	24.8
CC(=O)Nc1cccc2c1nc(-c1c(F)cccc1F)n2Cc1c(F)cccc1F	MT-4		RT-K101E	>12.5
CCc1c(C)[nH]c(=O)c(N(C)C)c1C(=O)c1cccc(Br)c1	MT-4		RT-L100I K103N	37.5
CC(c1cc(=O)[nH]c(SC2CCCC2)n1)c1c(F)cccc1F	MT-4		RT-Y181C	50
CC(=O)Oc1ccc(/C=C/C(=O)O[C@H](C(=O)O)[C@H](OC(=O)/C=C/c2ccc(OC(C)=O)c(OC(C)=O)c2)C(=O)O)cc1OC(C)=O	MT-4	NL4-3	AMD2763-resistant	>12
CCOC(=O)/C=C/c1cccc(C(=O)c2c(CC)c(C)[nH]c(=O)c2N(C)C)c1	MT-4		RT-Y181C	52.6
Fc1cccc(F)c1C1SCc2nc3ccccc3n21	CEM	Nevirapine-resistant (RT V106A)	RT-V106A	5.49
CCCCNc1nc(Cc2c(F)cccc2F)c(C)c(=O)[nH]1	MT-4		RT-Y181C	70
O=C1c2ccccc2C(=O)N1CCOC(=S)N(C(=O)c1ccccc1)c1ccccc1	MT-4	IIIB	RT-K103R V179D P225H	>250
Cc1ccnc2c1NC(=O)c1cccnc1N2C1CC1	MT-4	A17	RT-K103N Y181C	>588
CC(=O)Nc1cccc2c1nc(-c1c(F)cccc1F)n2Cc1c(F)cccc1F	MT-4		RT-K103N	>12.5
Cc1cn([C@H]2C[C@H](N=[N+]=[N-])[C@@H](COC(=O)NCCSC(=O)OC[C@@H]3CC[C@H](n4cnc5c(=O)[nH]cnc54)O3)O2)c(=O)[nH]c1=O	MT-4	NNRTI-resistant (RT K103N Y181C)	RT-K103N Y181C	1.2
CCOCn1c(Cc2ccccc2)c(C(C)C)c(=O)[nH]c1=O	MT-4	IIIB	RT-K103N Y181C	>5000
Cc1cn([C@H]2C=C[C@@H](CO)O2)c(=O)[nH]c1=O	MT-2		RT-Q151M V75I	3.2
Nc1cccc2c1nc(-c1c(F)cccc1F)n2Cc1c(F)cccc1F	MT-4		RT-V179D	0.75
O=c1[nH]cnc2c1ncn2[C@H]1CC[C@@H](CO)O1	MT-4	NNRTI-resistant (RT Y181C)	RT-Y181C	0.3
Cc1cn([C@@H]2O[C@H](CO[Si](C)(C)C(C)(C)C)C3(OS(=O)(=O)C=C3N)[C@H]2O[Si](C)(C)C(C)(C)C)c(=O)n(C)c1=O	MT-4	HXB2 (RT E138A S162C E169D T200A L214F) Clinical isolate	RT-E138A S162C E169D T200A L214F	706
Cc1cn([C@H]2C=C[C@@H](CO)O2)c(=O)[nH]c1=O	MT-4	NNRTI-resistant (RT K103N Y181C)	RT-K103N Y181C	1.06
CCC(C)Nc1nc(C(C)c2c(F)cccc2F)cc(=O)[nH]1	MT-4		RT-Y181C	35
CCc1c(C)[nH]c(=O)c(N(C)C)c1C(=O)c1cccc(/C=C/C#N)c1	MT-4		RT-K101E K103N	16
COc1ccc2c(c1)N(C(=O)OC(C)C)[C@@H](CSC)C(=S)N2	MT-4	HXB2 (RT E138A S162C E169D T200A L214F) Clinical isolate	RT-E138A S162C E169D T200A L214F	6
Fc1cccc(F)c1Cn1c(-c2c(F)cccc2F)nc2c(Br)cccc21	MT-4		RT-V108I	6.4
O=C1c2ccccc2C(=O)N1CCOC(=S)N(C(=O)c1cccnc1Cl)c1ccc(Cl)cc1	MT-4	A17	RT-K103N Y181C	>20000
CC(=O)c1ccc(C)cc1NC(C(N)=O)c1c(Cl)cccc1Cl	MT-4	IIIB	RT-E138K	26
Cc1cc(C)cc(Cc2c(CC(C)C)c(C)[nH]c(=O)c2N(C)C)c1	MT-4	Recombinant	RT-Y188L	157
CN(C)c1cccc2c1nc(-c1c(F)cccc1F)n2Cc1c(F)cccc1F	MT-4		RT-M184I	0.97
Nc1nc(NC2CC2)c2ncn([C@H]3C=C[C@@H](CO)C3)c2n1	MT-2		RT-Q151M A62V	2.8
Nc1cccc2c1nc(-c1c(F)cccc1F)n2Cc1c(F)cccc1F	MT-4	RT-4XAZT+L100I	RT-D67N K70R L100I T215Y K219Q	0.75
CC(C)=CCOCn1c(Cc2cc(C)cc(C)c2)c(C(C)C)c(=O)[nH]c1=O	MT-4	IIIB	RT-Y181C	100000

A second listing of 4 rows from above:

| SMILES | cells | strain | mutations | value |
|---|---|---|---|---|
| CC(C)=CCOCn1c(Cc2cc(C)cc(C)c2)c(C(C)C)c(=O)[nH]c1=O | MT-4 | IIIB | RT-Y181C | 100000 |
| Cc1cn([C@@H]2O[C@H](CO[Si](C)(C)C(C)(C)C)C3(OS(=O)(=O)C=C3N)[C@H]2O[Si](C)(C)C(C)(C)C)c(=O)n(C)c1=O | MT-4 | HXB2 (RT E138A S162C E169D T200A L214F) Clinical isolate | RT-E138A S162C E169D T200A L214F | 706 |
| CN(C)c1cccc2c1nc(-c1c(F)cccc1F)n2Cc1c(F)cccc1F | MT-4 |  | RT-M184I | 0.97 |
| Cc1cn([C@H]2C=C[C@@H](CO)O2)c(=O)[nH]c1=O | MT-2 |  | RT-Q151M V75I | 3.2 |